Experimental data: PubChem BioAssay AID504761 (Drosophila RNAi Screening Center, 2011)

Aim: 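Fly genes whose silencing reduces dengue virus type 2 infection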 (primary screen)
Cell system: D.Mel-2 cells from Drosophila
Knock-down reagent: long dsRNA against Drosophila genes
Conditions: infection with dengue virus type 2; dose and infection time not stated
Read-out: 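Per well on two replicate plates, imaging gave the percent of cells positive for viral envelope protein, ranked by infection, and a nuclear count of cells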
Reading the numbers: infection score: higher = more virus-infected cells
Rule for the call: 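Low infection ranks in the two replicates (chance level up to 0.065) followed by a retest with a 1.5-fold or larger significant decrease, p below 0.05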
Meaning of the calls: active = confirmed: knock-down lowers infection; inactive = not picked or not confirmed
In all, the deposit lists about 22,000 reagents; this is a random part of those with a known target gene and a result. In the full data, 116 (0.52%) got an active call. 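Calls depend on retest data that are not deposited; infection was ranked per plate without normalising between plates; the unit of the infection score is not given.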 A number with no mark means an inactive call. A plus sign joins genes that one reagent is predicted to hit. Not all columns of the deposit are shown. No sequences are given here. Not given: the amount of reagent, the time to read-out.

target gene	dsRNA	infection score, replicate 1
CG12917	DRSC06231	18.1
IntS8	DRSC07417	4.15
azot	DRSC06051	4.77
azot	DRSC25443	4.84
CG31106	DRSC14655	1.71
CG17108	DRSC02576	5.53
CG17108	DRSC22214	6.69
CG17108	DRSC25301	3.51
CG4229	DRSC10407	1.7
CG14383	DRSC14841	4.91
Cf2	DRSC23015	0.88
Cf2	DRSC28177	14.1
Cht11	DRSC18270	7.68
Cht11	DRSC25942	1.54
Tbcc	DRSC00223	3.29
Tbcc	DRSC30109	4.94
CG1463	DRSC19603	4.67
Fum2	DRSC18345	5.25
Fum2	DRSC25313	4.05
CG31525	DRSC12004	0.82
CG33270	DRSC10584	3.65
CG12869	DRSC06208	1.85
CG34450	DRSC17822	5.99
CG34450	DRSC25085	5.24
CG6660	DRSC16087	6.41
Fmr1	DRSC16674	4.79
Fmr1	DRSC26781	8.96
CG10587	DRSC11627	8.3
CG42299 + CG42300	DRSC19680	1.26
CG42299 + CG42300	DRSC19815	1.16
CG13891	DRSC08361	3.59
CG13891	DRSC25733	1.94
beta4GalNAcTB	DRSC14869	5.84
lbl	DRSC16986	1.77
Smyd5	DRSC15483	17.6
Dad	DRSC16642	7.47
Dad	DRSC28345	8.1
CG31267	DRSC15748	3.41
CG30183	DRSC04450	3.99
CG30183	DRSC04472	7.47
TpnC4	DRSC04856	8.46
CG34324	DRSC23241	1.41
bai	DRSC14388	0.43
CstF64	DRSC16616	0.93
CstF64	DRSC29486	6.47
fog	DRSC20646	5.92
CG9849	DRSC04573	17.9
CG6171	DRSC15982	13.4
TpnC47D	DRSC07564	18.5
fs(1)Ya	DRSC23058	0.53
l(1)G0320	DRSC18255	3.39
CG14565	DRSC11726	3.52
CG14565	DRSC26063	21
bgm	DRSC03495	25.5
bgm	DRSC27103	5.91
CG17192	DRSC15186	4.32
CG17192	DRSC24691	4.83
tw	DRSC18537	7.62
